Compound potency records, mixed from different reports. Data source: NIAID ChemDB in PubChem.

Shared fields: whole-cell or culture tests

ECn is the concentration giving n% inhibition of infection, replication or growth. Two numbers with a dash give a range or band. Conditions beyond the fields shown may differ between rows. MIC50, MIC90 and the like: level of inhibition, or share of isolates inhibited. An empty or dashed field is not shown. Percent inhibition refers to the dose given; in toxicity tests it is the harm to the cells.

compound	organism	strain or isolate	cell line	read by	read-out	tested at	value
COc1cc(/C=C2\Oc3cc(O)cc(O[C@@H]4O[C@H](CO)[C@@H](O)[C@H](O)[C@H]4O)c3C2=O)cc(OC)c1O	Cryptosporidium parvum				inhibition	50 µM	93%
CCOC(=O)c1cnc(NCCCCNc2ccnc3cc(Cl)ccc23)nc1C	Cryptococcus gattii	ATCC 32608			MIC99		16 µg/mL
COc1cc(/C=C2\Oc3cc(O)cc(O)c3C2=O)ccc1O	Cryptosporidium parvum				inhibition	10 µM	16%
CCn1nc(Cc2ccccc2)c2c1C(=O)c1c(OC(C)=O)c(C)c(C)c(OC(C)=O)c1C2=O	Cryptosporidium parvum				inhibition	100 µM	<10%
CC[C@@H](C(=O)[C@@H](C)[C@@H](O)[C@H](C)CCc1ccc(C)c(O)c1C(=O)O)[C@H]1O[C@](CC)([C@H]2CC[C@](O)(CC)[C@H](C)O2)C[C@@H]1C	Cryptosporidium parvum	IOWA	MDCK	luminescence	inhibition	0.1 µg/mL	17.2%
O=[N+]([O-])c1ccc(C=Nc2ccccc2O)cc1	Cryptococcus neoformans	ATCC 62066		broth dilution	MIC		2.8 µg/mL
O=C1c2cn[nH]c2C(=O)c2c(O)ccc(O)c21	Cryptosporidium parvum				inhibition	10 µM	20%
Oc1ccccc1N=Cc1ccc(F)cc1	Cryptococcus gattii	ATCC 24065			MIC99		5.7 µg/mL
Cn1ncc2c1C(=O)c1c(O)c3c(c(O)c1C2=O)CCCC3	Cryptosporidium parvum				inhibition	50 µM	<10%
CCC(C)n1ncn(-c2ccc(N3CCN(c4ccc(OC[C@H]5CO[C@](Cn6cncn6)(c6ccc(Cl)cc6Cl)O5)cc4)CC3)cc2)c1=O	Cryptococcus neoformans	A25838			MFC99		0.25 µg/mL
O=C1COc2cc(O)ccc21	Cryptosporidium parvum				inhibition	10 µM	0%
CN[C@H]1CC[C@@H](c2ccc(Cl)c(Cl)c2)c2ccccc21	Cryptococcus neoformans	A7-35-23		broth dilution	MIC90		3 µg/mL
CCOC(=O)c1c(C)nc(NCCCNc2ccnc3cc(Cl)ccc23)nc1-c1ccccc1	Cryptococcus gattii	LMM 818			MIC99		11.3 µg/mL
COc1cc(/C=C2\Oc3cc(O)cc(O[C@@H]4O[C@H](CO)[C@@H](O)[C@H](O)[C@H]4O)c3C2=O)cc(OC)c1OC(C)=O	Cryptosporidium parvum				inhibition	25 µM	3%
Cn1nc(Cc2ccc(Cl)cc2)c2ccccc2c1=O	Cryptococcus neoformans	Clinical isolate (IM 983036)		broth dilution	MIC80		≥250 µg/mL
CC1(C)O[C@H]2[C@H](O)[C@@H](N=[N+]=[N-])C=C(c3ccc(C=O)cc3)[C@H]2O1	Cryptococcus neoformans	ATCC 32264		broth dilution / turbidity	inhibition	62.5 µg/mL	6.76%
O=C1/C(=C/c2cccc(O)c2)Oc2cc(O)ccc21	Cryptosporidium parvum				inhibition	50 µM	92%
CO[C@H]1/C=C/O[C@@]2(C)Oc3c(C)c(O)c4c(O)c(c5c(c4c3C2=O)NC2(CCN(CC(C)C)CC2)N=5)=NC(=O)/C(C)=C\C=C\[C@H](C)[C@H](O)[C@@H](C)[C@@H](O)[C@@H](C)[C@H](OC(C)=O)[C@@H]1C	Cryptosporidium parvum		A549		EC50		>8 µg/mL
CCC(C)n1ncn(-c2ccc(N3CCN(c4ccc(OC[C@H]5CO[C@](Cn6cncn6)(c6ccc(Cl)cc6Cl)O5)cc4)CC3)cc2)c1=O	Cryptococcus gattii	VG IIb		broth dilution	MIC50		0.25 µg/mL
O=C1/C(=C/c2ccccc2)Oc2cc(O)ccc21	Cryptosporidium parvum				inhibition	50 µM	10%
NCCCC[C@H](NC(=O)[C@H](CCCN=C(N)N)NC(=O)[C@H](CCCN=C(N)N)NC(=O)[C@H](CCCCN)NC(=O)[C@H](CCCCN)NC(=O)[C@@H](N)CCCCN)C(=O)N[C@@H](CCCN=C(N)N)C(=O)O	Cryptococcus neoformans	ATCC 32264			inhibition	12.5 µM	0%
Cn1ncc2c1C(=O)c1cccc(O)c1C2=O	Cryptosporidium parvum				EC50		10–25 µM
Oc1ccccc1C=Nc1ccccc1O	Cryptococcus gattii	L-28/02			MIC99		5.7 µg/mL
O=C1/C(=C/c2ccc(O)cc2)Oc2cc(O)ccc21	Cryptosporidium parvum				inhibition	50 µM	93%
C[C@@H](c1ncncc1F)[C@](O)(Cn1cncn1)c1ccc(F)cc1F	Cryptococcus gattii	CBS 11247		broth dilution	MIC		0.25 µg/mL
Oc1ccccc1N=Cc1ccc2c(c1)OCO2	Cryptococcus neoformans	ATCC 24067			MIC99		4 µg/mL
CC(=O)Oc1ccccc1C(=O)Nc1ncc([N+](=O)[O-])s1	Cryptosporidium parvum		MDBK	cell count	inhibition	1 µg/mL	44%
CCOC(=O)c1c(C)nc(NCCCCNc2ccnc3cc(Cl)ccc23)nc1-c1ccccc1[N+](=O)[O-]	Cryptococcus gattii	196L/03			MIC99		8 µg/mL
O=C1/C(=C/c2ccc(O)cc2O)Oc2cc(O)ccc21	Cryptosporidium parvum				inhibition	25 µM	90%